Broadly, the Km is the substrate concentration at which the rate is half of its maximum. As a reminder, the kcat is the number of substrate molecules converted per active site and unit of time at saturation. Usually kcat/Km stands for the turnover number divided by the Michaelis constant.

Test systems include COc1cccc(CO)c1; COc1ccc(CO)cc1OC; O=Cc1ccc(CO)o1; O=C(O)c1ccc(CO)o1; OCc1ccccc1; O=Cc1ccc(C=O)o1.
Assay in all cases: purified protein
Common to all, as to conditions: O2 co-substrate, pH 7.5 sodium phosphate 50 mM, 35 °C

Consider FgrAAO (Fusarium graminearum PH-1), for which the Km stood at 6.5 ± 1.5 mM in the data set on COc1cccc(CO)c1; 3.7 ± 0.75 mM in the data set on COc1ccc(CO)cc1OC; 14 ± 2.6 mM with O=Cc1ccc(CO)o1; 4.4 ± 0.90 mM with O=C(O)c1ccc(CO)o1; 86 ± 12 mM in the data set with OCc1ccccc1; 10 ± 2.9 mM in the data set on O=Cc1ccc(C=O)o1. In addition, the kcat in the data set with COc1cccc(CO)c1 is 52 s⁻¹; in the data set on COc1ccc(CO)cc1OC it was 41 s⁻¹; in the data set with O=Cc1ccc(CO)o1, 29 s⁻¹; in the data set on O=C(O)c1ccc(CO)o1, 3.8 s⁻¹; with OCc1ccccc1, 37 s⁻¹; with O=Cc1ccc(C=O)o1, 3.6 s⁻¹. Besides, the kcat/Km with COc1cccc(CO)c1 amounted to 8000 M⁻¹ s⁻¹; in the data set on COc1ccc(CO)cc1OC, 11000 M⁻¹ s⁻¹; in the data set with O=Cc1ccc(CO)o1, 2100 M⁻¹ s⁻¹; in the data set with O=C(O)c1ccc(CO)o1 it was 860 M⁻¹ s⁻¹; in the data set on OCc1ccccc1, 430 M⁻¹ s⁻¹; in the data set on O=Cc1ccc(C=O)o1, 360 M⁻¹ s⁻¹.
With “FoxAAO (Fusarium oxysporum f. sp. lycopersici 4287)”, in the data set with COc1cccc(CO)c1, the Km turned out to be 6.7 ± 0.59 mM, the kcat turned out to be 34 s⁻¹ and the kcat/Km was determined as 5100 M⁻¹ s⁻¹.

The values above are taken from PMC8207647.
